Pooled drug test results. Numbers come from NIAID ChemDB, via PubChem.

Common to all: growth or infection tests; organism: HIV-1; cells: MT-4; measure: fold resistance

An empty or dashed field is not shown.

{"compound": "CC(C)CN(C[C@@H](O)[C@H](Cc1ccccc1)NC(=O)O[C@H]1CCOC1)S(=O)(=O)c1ccc(N)cc1", "strain or isolate": "NL4-3", "mutations": "L10I I15V K20R L24I V32I M36I M46I I54V I62V L63P K70Q V82A L88M", "read by": "p24 / luminescence", "result": ">27"}
{"compound": "COC(=O)c1cccc2c1nc(-c1c(F)cccc1F)n2Cc1c(F)cccc1F", "mutations": "RT-Y181C", "read by": "cytopathic effect / MTT", "result": "16.8"}
{"compound": "Nc1ccn([C@H]2CC[C@@H](CO)O2)c(=O)n1", "strain or isolate": "126 BCH-189 (RT-M184V)", "mutations": "RT-M184V", "read by": "p24", "result": "6.57"}
{"compound": "COC(=O)N[C@H](C(=O)N[C@@H](Cc1ccccc1)[C@@H](O)CN(Cc1ccc(-c2ccccn2)cc1)NC(=O)[C@@H](NC(=O)OC)C(C)(C)C)C(C)(C)C", "strain or isolate": "NL4-3", "mutations": "L10F M46I I54V V82A", "read by": "p24 / luminescence", "result": ">213"}
{"compound": "Nc1ccn([C@H]2CC[C@@H](CO)O2)c(=O)n1", "strain or isolate": "HXB2-D50(RT-I50T)", "mutations": "RT-I50T", "read by": "p24", "result": "1.07"}
{"compound": "CC(C)CN(C[C@@H](O)[C@H](Cc1ccccc1)NC(=O)[C@H](CC(N)=O)NC(=O)c1ccc2ccccc2n1)C(=O)NC(C)(C)C", "strain or isolate": "NL4-3", "mutations": "PR-V82T", "read by": "p24", "result": "0.5"}
{"compound": "CC(=O)Oc1ccc(/C=C/C(=O)O[C@@H](C(=O)O)[C@@H](OC(=O)/C=C/c2ccc(OC(C)=O)c(OC(C)=O)c2)C(=O)O)cc1OC(C)=O", "strain or isolate": "NL4-3", "mutations": "AMD2763-resistant", "result": ">9.25"}
{"compound": "Fc1cccc(F)c1Cn1c(-c2c(F)cccc2F)nc2c(Br)cccc21", "mutations": "RT-Y188C", "read by": "cytopathic effect / MTT", "result": "6.8"}
{"compound": "O=S(=O)(O)OC1C(OS(=O)(=O)O)C(OS(=O)(=O)O)C(OS(=O)(=O)O)C(OS(=O)(=O)O)C1OS(=O)(=O)O", "strain or isolate": "NL4-3", "mutations": "GP120-R302S", "read by": "cytopathic effect / MTT", "result": ">25"}
{"compound": "CC(C)CN(C[C@@H](O)[C@H](Cc1ccccc1)NC(=O)O[C@H]1CO[C@H]2OCC(F)(F)[C@H]21)S(=O)(=O)c1ccc(N)cc1", "strain or isolate": "NL4-3", "mutations": "L10I G48V I54V A71V I84V L90M SQV resistant", "result": "13"}
{"compound": "Fc1cccc(F)c1Cn1c(-c2c(F)cccc2F)nc2c(Br)cccc21", "mutations": "RT-L100I", "read by": "cytopathic effect / MTT", "result": "0.6"}
{"compound": "CC(C)CN(C[C@@H](O)[C@H](Cc1ccccc1)NC(=O)O[C@H]1CCOC1)S(=O)(=O)c1ccc(N)cc1", "strain or isolate": "NL4-3", "mutations": "L10I G48V I54V A71V I84V L90M SQV resistant", "result": "5"}
{"compound": "CCc1cc(NCc2nc3c(Cl)ccc(Cl)c3o2)c(=O)[nH]c1C", "strain or isolate": "DLV-resistant IIIB (RT-L100I)", "mutations": "RT-L100I", "read by": "p24", "result": "36.4"}
{"compound": "CC(C)c1nc(CN(C)C(=O)N[C@H](C(=O)N[C@@H](Cc2ccccc2)C[C@H](O)[C@H](Cc2ccccc2)NC(=O)OCc2cncs2)C(C)C)cs1", "strain or isolate": "NL4-3", "mutations": "PR-N88D", "read by": "p24", "result": "0.2"}
{"compound": "CC(C)(C)NC(=O)[C@@H]1C[C@@H]2CCCC[C@@H]2CN1C[C@@H](O)[C@H](Cc1ccccc1)NC(=O)[C@H](CC(N)=O)NC(=O)c1ccc2ccccc2n1", "strain or isolate": "NL4-3", "mutations": "PR-L10R M46I L63P V82T I84V", "read by": "p24", "result": "8"}
{"compound": "COc1ccc(S(=O)(=O)N(CC(C)C)C[C@@H](O)[C@H](Cc2ccccc2)NC(=O)O[C@H]2CO[C@H]3OCC(F)(F)[C@H]32)cc1", "strain or isolate": "NL4-3", "mutations": "L10F V32I M46I I45M A71V I84V APV resistant", "result": "860"}
{"compound": "CN(C)c1cccc2c1nc(-c1c(F)cccc1F)n2Cc1c(F)cccc1F", "mutations": "RT-M184I", "read by": "cytopathic effect / MTT", "result": "0.97"}
{"compound": "CCN[C@H]1CO[C@@H]2OCC[C@H](OC(=O)N[C@@H](Cc3ccccc3)[C@H](O)CN(CC(C)C)S(=O)(=O)c3ccc4nc(NC5CC5)sc4c3)[C@@H]21", "strain or isolate": "NL4-3", "mutations": "L10F V32I L33F M46L I54M A71V", "read by": "p24 / luminescence", "result": "1.1"}
{"compound": "CC(=O)Nc1cccc2c1nc(-c1c(F)cccc1F)n2Cc1c(F)cccc1F", "mutations": "RT-V106A", "read by": "cytopathic effect / MTT", "result": ">12.5"}
{"compound": "CCN[C@H]1CO[C@@H]2OCC[C@H](OC(=O)N[C@@H](Cc3cccc(OC)c3)[C@H](O)CN(CC(C)C)S(=O)(=O)c3ccc4nc(NC(C)C)sc4c3)[C@@H]21", "strain or isolate": "NL4-3", "mutations": "L10I N37D G48V I54V L63P G73C I84V L90M", "read by": "p24 / luminescence", "result": "1.4"}
{"compound": "Nc1cccc2c1nc(-c1c(F)cccc1F)n2Cc1c(F)cccc1F", "mutations": "RT-V179D", "read by": "cytopathic effect / MTT", "result": "0.75"}
{"compound": "CC(=O)Oc1ccc(/C=C/C(=O)O[C@H](C(=O)O)[C@H](OC(=O)/C=C/c2ccc(OC(C)=O)c(OC(C)=O)c2)C(=O)O)cc1OC(C)=O", "strain or isolate": "NL4-3", "mutations": "DS-resistant", "read by": "cytopathic effect / MTT", "result": ">12"}
{"compound": "O=c1[nH]cnc2c1ncn2[C@H]1CC[C@@H](CO)O1", "strain or isolate": "HXB2-D (RT K65R M184V)", "mutations": "RT-K65R M184V", "read by": "p24", "result": "4.89"}
{"compound": "CC(=O)Nc1cccc2c1nc(-c1c(F)cccc1F)n2Cc1c(F)cccc1F", "mutations": "RT-K101E", "read by": "cytopathic effect / MTT", "result": ">40"}
{"compound": "CC(C)CN(C[C@@H](O)[C@H](Cc1ccccc1)NC(=O)O[C@H]1CCO[C@H]2OCC[C@H]21)S(=O)(=O)c1ccc2nc(NC3CC3)sc2c1", "strain or isolate": "NL4-3", "mutations": "L10I N37D G48V I54V L63P G73C I84V L90M", "read by": "p24 / luminescence", "result": "77"}
{"compound": "CCc1cc(NCc2nc3c(Cl)ccc(Cl)c3o2)c(=O)[nH]c1C", "strain or isolate": "NL4-3", "mutations": "RT-K10D K103N", "read by": "p24", "result": ">30"}
{"compound": "Nc1cccc2c1nc(-c1c(F)cccc1F)n2Cc1c(F)cccc1F", "mutations": "RT-V179D", "read by": "cytopathic effect / MTT", "result": "0.75"}

A second listing of 2 rows from above:

compound	strain or isolate	mutations	read by	result
CC(C)CN(C[C@@H](O)[C@H](Cc1ccccc1)NC(=O)O[C@H]1CO[C@H]2OCC(F)(F)[C@H]21)S(=O)(=O)c1ccc(N)cc1	NL4-3	L10I G48V I54V A71V I84V L90M SQV resistant	-	13
CCN[C@H]1CO[C@@H]2OCC[C@H](OC(=O)N[C@@H](Cc3cccc(OC)c3)[C@H](O)CN(CC(C)C)S(=O)(=O)c3ccc4nc(NC(C)C)sc4c3)[C@@H]21	NL4-3	L10I N37D G48V I54V L63P G73C I84V L90M	p24 / luminescence	1.4

Neighbouring rows are from separate reports. Fold resistance has wild type as its base.